Results as given in publication PMC8720485.

Target: SARS-CoV-2 receptor binding domain (RBD), wild type, monomeric (SARS-CoV-2) (UniProt P0DTC2)
Experiment: BLI

Substance: B38
- Kd: 2100 nM
